Laboratory results: publication PMC12526154, “Bioactive Compounds Discovery from French Guiana Plant Extracts Through Antitubercular Screening and Molecular Networking” (Plants, 2025)
Where “and” joins values, the source holds several entries; their conditions need not be identical. Equal entries are not always repeated. The index is printed as in the source, without its formula.

Columns and labels:
[1] = tested on: IMR90 (embryonic lung fibroblasts); experiment: Resazurin reduction cytotoxicity assay, IMR90
[2] = tested on: BEAS-2B (bronchial epithelial cells)
HepG2 cells = experiment: Resazurin reduction cytotoxicity assay, HepG2

| Compound | TI (therapeutic index) [1] | TI (therapeutic index) [2] | TI (therapeutic index) (HepG2 cells) |
| --- | --- | --- | --- |
| COc1cc2oc(-c3ccc(O)c(O)c3)cc(=O)c2c(O)c1OC [Cirsiliol] | < 0.54 |  |  |
| COc1c(O)cc2oc(-c3ccc(O)cc3)cc(=O)c2c1O [Hispidulin] | > 0.9 and 0.9 | > 1.5 | > 1.5 |
| C=Cc1c(C)c2cc3nc(c4c5[nH]c(cc6nc(cc1[nH]2)C(C)=C6CC)c(C)c5C(=O)[C@@H]4C(=O)OC)[C@@H](CCC(=O)O)[C@@H]3C [Pheophorbide A] | 0.68 | 0.29 | >4.9 |
| C/C1=C\CC(C)(C)/C=C/C(=O)/C(C)=C/CC1 [Zerumbone] | < 0.4 | < 0.74 |  |
